The source of these data is PMC5404198.

As usually defined, the Km is the concentration of substrate that gives half-maximal velocity.

This data set has as its system Nc1ncnc2c1ncn2[C@@H]1O[C@H](COP(=O)(O)OP(=O)(O)OP(=O)(O)O)[C@@H](O)[C@H]1O. The experiment in a line: purified protein. Particulars: ATPase activity; steady-state hyperbolic kinetics; pH and temperature of the kinetic assay not given.

For “LotP (CLIBASIA_03135; His6X-LotP) (Candidatus Liberibacter asiaticus str. psy62)”, the Km is 133.98 µM.
